Literature values as cited in paper PMC3511042 (Beilstein Journal of Organic Chemistry, 2012).

Key:
RNA-polymerases III = tested on: RNA-polymerases III; parameters: method as in PMID 5344598; conditions: cited from earlier work
RNA-polymerases I = tested on: RNA-polymerases I; parameters: method as in PMID 5344598; conditions: cited from earlier work

CC[C@H](C)[C@@H]1NC(=O)CNC(=O)[C@@H]2Cc3c([nH]c4cc(O)ccc34)[S@+]([O-])C[C@H](NC(=O)CNC1=O)C(=O)N[C@@H](CC(N)=O)C(=O)N1C[C@H](O)C[C@H]1C(=O)N[C@@H]([C@@H](C)[C@@H](O)CO)C(=O)N2 [compound 4, α-amanitin]
concentration for inhibition of RNA-polymerases III relative to RNA-polymerases II (RNA-polymerases III): ca. 1000 times | inhibition of RNA-polymerases I (RNA-polymerases I): not inhibited at all
